Here are results for three substances from patent US20120207742.

The target of assay [1] is SNAP-25 (endogenous, hamster HIT-T15 cells), Syrian Golden Hamster. The assay is described as follows: cell-based or functional assay. Conditions: scale: amount of insulin released per 1x10^6 cells per hour.
The target of assay [2] is VAMP-2 (endogenous, hamster HIT-T15 cells), Syrian Golden Hamster. Nature of the assay: cell-based or functional assay. Conditions: scale: amount of insulin released per 1x10^6 cells per hour.

Consider GFP-LC/A fusion protein, for which, in assay [1], the Insulin Release from HIT-T15 cells, 5.6 mM Glucose (Low) worked out at 3.2 and the Insulin Release from HIT-T15 cells, 25.2 mM Glucose (High) amounted to 4.5.

GFP-LC/B fusion protein: in assay [2], the Insulin Release from HIT-T15 cells, 5.6 mM Glucose (Low) was found to be 3.4 and the Insulin Release from HIT-T15 cells, 25.2 mM Glucose (High) amounted to 5.5.

For GFP-LC/E fusion protein, in assay [1], the Insulin Release from HIT-T15 cells, 5.6 mM Glucose (Low) came out at 4.2 and the Insulin Release from HIT-T15 cells, 25.2 mM Glucose (High) came out at 4.4.
